From article PMC4538832, “Structures of the T. brucei kRNA editing factor MRB1590 reveal unique RNA-binding pore motif contained within an ABC-ATPase fold” (Nucleic Acids Research, 2015)
Construct, isoform or probe ends are uncertain for at least one entry. Protein sequences can lack the tags named with them.

Tested on: T1, MRB1590(10-668) (Trypanosoma brucei)
T1 sequence (looked up, limits assumed): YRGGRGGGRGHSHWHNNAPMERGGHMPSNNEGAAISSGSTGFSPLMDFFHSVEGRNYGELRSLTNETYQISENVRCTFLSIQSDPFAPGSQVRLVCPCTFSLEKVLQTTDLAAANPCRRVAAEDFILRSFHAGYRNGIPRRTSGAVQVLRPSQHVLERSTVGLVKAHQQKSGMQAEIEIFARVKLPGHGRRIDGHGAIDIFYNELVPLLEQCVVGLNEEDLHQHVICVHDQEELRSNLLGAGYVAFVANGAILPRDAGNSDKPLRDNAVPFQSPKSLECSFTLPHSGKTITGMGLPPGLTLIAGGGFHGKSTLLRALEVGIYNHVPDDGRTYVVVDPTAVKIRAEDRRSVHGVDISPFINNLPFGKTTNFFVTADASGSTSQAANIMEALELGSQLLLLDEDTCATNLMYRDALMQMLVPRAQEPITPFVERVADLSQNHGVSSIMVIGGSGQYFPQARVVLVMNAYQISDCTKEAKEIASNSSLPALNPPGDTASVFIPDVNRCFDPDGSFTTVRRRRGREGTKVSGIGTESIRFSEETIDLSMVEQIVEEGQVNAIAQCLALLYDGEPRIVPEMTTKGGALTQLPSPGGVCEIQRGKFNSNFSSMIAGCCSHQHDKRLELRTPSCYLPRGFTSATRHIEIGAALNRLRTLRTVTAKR
Assay: fluorescence polarization
Conditions: AMP-PNP (table header says ATP), Mg2+, FP: 20 mM Tris-HCl pH 7.5, 150 mM NaCl, 5% glycerol, 1 mM MgCl2, 2 mM ADP or AMP-PNP, 1 nM 3'-fluoresceinated RNA (heated to 99 C, slow cooled), 25 C, recombinant protein

Sequence	Kd (label: 3' fluorescein) [nM]	Kd (letters put together from the description) [nM]
AAAAAAAAAAAAAAA [A15 RNA]	720	
AGGCGGGCGGGCGACGGCGGU / ACCGCCGUCGCCCGCCCGCCU [dsGC-rich RNA]		174
AGGCGGGCGGGCGACGGCGGU [GC-rich sequence RNA (A6 pause site, 21 mer)]	72	
UUUUUUUUUUUUUUU [U15 RNA]	471	
